# System: HIV peptide T
# Assay: Covalent photobinding of 8-MOP to HIV peptide T
# Assay type: binding
# Details: peptide 0.4 mg/ml, 8-MOP 0.04 mg/ml
compound,measurement,setting,value
"COc1c2occc2cc2ccc(=O)oc12 [8-MOP, 8-methoxypsoralen]",8-MOP adducts/HIV peptide,15 min UVA exposure (3.5 mW/cm^2),0.028 8-MOP adducts/HIV peptide
same,8-MOP adducts/HIV peptide,30 min UVA exposure (3.5 mW/cm^2),0.041 8-MOP adducts/HIV peptide
